Pooled drug test results. Numbers come from NIAID ChemDB, via PubChem.

Common to all: whole-cell or culture tests; organism: Mycobacterium tuberculosis

Lines come from different laboratories, so protocols vary.

SMILES,read by,setting,measure,tested at,strain or isolate,mutations,cells,value
CC(C)N=c1cc2n(-c3ccc(Cl)cc3)c3ccccc3nc-2cc1Nc1ccc(Cl)cc1,broth dilution,-,MIC99,-,H37Rv,KatG W149R mutation,-,0.125 µg/mL
COC(=O)c1nnc(C(=O)OC)c2c1[nH]c1ccccc12,BACTEC,-,inhibition,12.5 µg/mL,H37Rv,-,-,0%
CC1(C)C[C@H]2[C@@H](C1)[C@@H](C(CCO)NCCCCCCCCCNC(CCO)[C@H]1O[C@@H]3CC(C)(C)C[C@@H]3[C@H]3CC(C)(C)C[C@H]31)O[C@@H]1CC(C)(C)C[C@H]21,-,-,MIC,-,H37Rv,-,-,25 µg/mL
CO[C@H]1/C=C/O[C@@]2(C)Oc3c(C)c(O)c4c(O)c(cc(O)c4c3C2=O)NC(=O)/C(C)=C\C=C\[C@H](C)[C@H](O)[C@@H](C)[C@@H](O)[C@@H](C)[C@H](OC(C)=O)[C@@H]1C,-,-,MIC,-,Schiavo,-,-,0.005 µg/mL
O=C(CSc1nnc(-c2ccccn2)s1)N/N=c1/scc(-c2ccccc2)n1-c1cccc([N+](=O)[O-])c1,-,-,MIC,-,Clinical isolate 190,-,-,>80 µg/mL
CC1COc2c(N3CCN(C)CC3)c(F)cc3c(=O)c(C(=O)O)cn1c23,-,-,MIC,-,ATCC 35826,-,-,0.5 µg/mL
N/C(=N\N=C\c1ccccc1)SCc1ccc(Br)cc1,broth dilution,21 d,MIC,-,H37Rv,-,-,32 µM
C[C@H]1CN(c2c(F)cc3c(=O)c(C(=O)O)cn(C4CC4)c3c2OC(F)F)CCN1,-,-,MIC50,-,100 isolates,-,-,0.25 µg/mL
O=C(c1ccncc1)N1N=C(c2ccco2)CC1(O)C(F)(F)F,-,-,MIC,-,H37Rv,-,-,9.6 µM
CCOC(=O)CC(NCCCCCCCNC(CC(=O)OCC)[C@H]1O[C@@H]2CC(C)(C)C[C@@H]2[C@H]2CC(C)(C)C[C@H]21)[C@H]1O[C@@H]2CC(C)(C)C[C@@H]2[C@H]2CC(C)(C)C[C@H]21,-,-,MIC,-,H37Rv,-,-,>25 µg/mL
CN(C)C(=S)SC1OC(CO)C(OC2OC(CO)C(O)C(O)C2O)C(O)C1O,BACTEC,-,inhibition,128 µg/mL,H37Rv,-,-,100%
CNC1CCCN(c2c(F)cc3c(=O)c(C(=O)O)cn(C4CC4)c3c2OC)C1,-,-,MIC90,-,100 isolates,-,-,4 µg/mL
CO[C@H]1/C=C/O[C@@]2(C)Oc3c(C)c(O)c4c(O)c(c(/C=N/N5CCN(C)CC5)c(O)c4c3C2=O)NC(=O)/C(C)=C\C=C\[C@H](C)[C@H](O)[C@@H](C)[C@@H](O)[C@@H](C)[C@H](OC(C)=O)[C@@H]1C,-,-,MIC,-,Clinical isolate 7,-,-,0.5 µg/mL
O=C(O)c1cn(C2CCCCC2)c2cc(NC3CCCCC3)c([N+](=O)[O-])cc2c1=O,-,-,MIC50,-,ATCC 27294 (WT),-,-,>200 µM
Cc1cccc(N=Nc2c(O)c3cc(-c4ccccc4)ccc3oc2=O)c1,resazurin,-,MIC,-,H37Rv,-,-,<6.25 µg/mL
CCCCCCCCc1ccc(Oc2ccccc2)c(O)c1,-,-,MIC99,-,HN335,-,-,3.1 µg/mL
CCCC(C)Nc1cc2c(cc1[N+](=O)[O-])c(=O)c(C(=O)O)cn2C(C)CCC,-,-,MIC50,-,ATCC 27294 (WT),-,-,>200 µM
CCCOCC1(c2ccccc2)C(N)=NC(=O)N1C,BACTEC,-,inhibition,12.5 µg/mL,H37Rv,-,-,3%
COC(=O)c1cc(C2CCCC2)c2c(C3CCCC3)cccc2n1,-,-,MIC,-,H37Rv,-,-,1 µg/mL
O=c1[nH]c2cc([N+](=O)[O-])ccc2c(O)c1N=Nc1ccccc1-c1ccccc1,resazurin,-,inhibition,6.25 µg/mL,H37Rv,-,-,100%
COc1cc(/C=C/c2ccc(OC)c(OC)c2)oc(=O)c1,BACTEC,-,inhibition,12.5 µg/mL,H37Rv,-,-,27%
NNC(=O)c1ccncc1,-,-,MIC,-,Clinical isolate 5,-,-,0.1 µg/mL
C[C@@H]1CN(c2c(F)c(N)c3c(=O)c(C(=O)O)cn(C4CC4)c3c2F)C[C@H](C)N1,-,-,MIC50,-,Drug-resistant,-,-,0.06 µg/mL
CCOC(=O)Cc1cc(C2C3CC4CC(C3)CC2C4)nc2ccccc12,-,-,inhibition,6.25 µg/mL,H37Rv,-,-,47%
CN[C@@H]1[C@H](O[C@H]2[C@H](O[C@H]3[C@H](O)[C@@H](O)[C@H](N=C(N)N)[C@@H](O)[C@@H]3N=C(N)N)O[C@@H](C)[C@]2(O)C=O)O[C@@H](CO)[C@H](O)[C@H]1O,-,-,MIC,-,Clinical isolate 2,-,-,50 µg/mL
CC(=O)c1c(C)[nH]c(C(=O)N/N=C/c2cccc(Cl)c2)c1C,resazurin,-,MIC,-,H37Rv,-,-,<6.25 µg/mL
CC[C@@H](CO)NCCN[C@@H](CC)CO,broth dilution,-,MIC99,-,H37Rv,KatG W149R isoniazid-resistant,-,1 µg/mL
CCN(CC)CCNc1cc2ccccc2c2sc3ccccc3c(=O)c12,BACTEC,-,inhibition,12.5 µg/mL,H37Rv,-,-,98%
CCCN1CCN(c2cc3c(cc2F)c(=O)c(C(=O)O)cn3C2CC2)CC1,-,-,MIC50,-,-,-,-,0.125 µg/mL
COc1ccc(CS/C(N)=N/N=C/c2cc(Br)ccc2O)cc1,broth dilution,14 d,MIC,-,H37Rv,-,-,62.5 µM
O=C(Oc1c(O)c2ccccc2c2ccccc12)c1ccccc1,-,-,MIC,-,H37Rv,-,VERO,0.78 µg/mL
CC(C)(C)n1cc(C(=O)O)c(=O)c2cc([N+](=O)[O-])c(N3CCSCC3)cc21,-,-,MIC50,-,ATCC 27294 (WT),-,-,1.6 µM
CCOC(=O)C[C@H](NCCCCCCCCN[C@@H](CC(=O)OCC)C1O[C@@H]2OC(C)(C)O[C@@H]2[C@H]1OCc1ccccc1)C1O[C@@H]2OC(C)(C)O[C@@H]2[C@H]1OCc1ccccc1,-,-,MIC,-,H37Rv,-,-,6.25 µg/mL
O=C1C(CC=C(Cl)Cl)=C(OC2OC(CO)C(O)C(O)C2O)C(=O)c2ccccc21,BACTEC,-,MIC,-,H37Rv,-,-,128 µg/mL
O=C(c1ccncc1)N1N=C(c2cccs2)CC1(O)C(F)(F)F,-,-,MIC,-,RGH103,-,-,>293 µM
CCOC(=O)Cc1cc(C2CCCC2)nc2ccccc12,-,-,MIC,-,H37Rv,-,-,>6.25 µg/mL
CO[C@H]1/C=C/O[C@@]2(C)Oc3c(C)c(O)c4c(O)c(c(/C=N/N5CCN(C)CC5)c(O)c4c3C2=O)NC(=O)/C(C)=C\C=C\[C@H](C)[C@H](O)[C@@H](C)[C@@H](O)[C@@H](C)[C@H](OC(C)=O)[C@@H]1C,-,-,MIC,-,H37Rv (rifampicin-resistant),-,-,>40 µg/mL
O=C1C(=O)c2cccnc2C(O)=C1CC1CCCCC1,resazurin,-,MIC bound,-,H37Rv,-,-,>6.25 µg/mL
COc1cccc(CS/C(N)=N/N=C/c2cc(Cl)ccc2O)c1,broth dilution,14 d,MIC,-,H37Rv,-,-,32 µM
COC(=O)c1cc(C2CCCC2)c2ccccc2n1,-,-,inhibition,6.25 µg/mL,H37Rv,-,-,0%
N/C(=N\N=C\c1cc(Br)ccc1O)SCc1ccc(C(F)(F)F)cc1,broth dilution,21 d,MIC,-,H37Rv,-,-,32 µM
COC(=O)c1cc(C2CCCC2)nc2ccccc12,-,-,inhibition,6.25 µg/mL,H37Rv,-,-,2%
O=C(CSc1nnc(-c2ccccn2)s1)N/N=c1/scc(-c2ccccc2)n1-c1ccc([N+](=O)[O-])cc1,-,-,MIC,-,Clinical isolate 190,-,-,>80 µg/mL
O=C(O)c1ccnc2ccccc12,-,-,inhibition,6.25 µg/mL,H37Rv,-,-,6%
O=C(CSc1nnc(-c2ccccn2)s1)N/N=c1/scc(-c2ccccc2)n1-c1cccc(Br)c1,-,-,MIC,-,Clinical isolate 180,-,-,40 µg/mL
Cc1cccc2c1[N+](C)=C(/C=C/c1cc(C)c3cccnc3c1O)C2(C)C,resazurin,-,MIC bound,-,H37Rv,-,-,>6.25 µg/mL
N/C(=N\N=C\c1ccccc1O)SCc1ccc(Br)cc1,broth dilution,14 d,MIC,-,H37Rv,-,-,16 µM
CCCCCCCCCC(=O)Oc1c2ccoc2cc2oc(=O)ccc12,resazurin,-,inhibition,6.25 µg/mL,H37Rv,-,-,-5%
O=C(c1ccncc1)N1N=C(c2cccs2)CC1(O)C(Cl)(Cl)Cl,-,-,MIC,-,RGH104,-,-,>257 µM
Cn1c([N+](=O)[O-])cnc1CSc1ccc(C#N)cc1,resazurin,-,MIC bound,-,H37Rv,-,-,>6.25 µg/mL
CN1CCN(c2cc3c(cc2F)c(=O)c(C(=O)O)cn3C2CC2)CC1,-,-,MIC90,-,-,-,-,0.5 µg/mL
O=C(CSc1nnc(-c2ccccn2)s1)N/N=c1/scc(-c2ccccc2)n1-c1cccc(Cl)c1,-,-,MIC,-,Clinical isolate 331,-,-,>80 µg/mL
CC1CN(c2cc3c(cc2F)c(=O)c(C(=O)O)cn3-c2ccc(F)cc2F)CCN1,-,-,MIC90,-,Drug-resistant,-,-,2 µg/mL
CC(=O)c1c(O)c(C)c(O)c2c1OC1=CC(=O)/C(=C(\C)N)C(=O)C12C,BACTEC,-,MIC,-,H37Rv,-,-,≥12.5 µg/mL
O=C(O)Cc1cc(C2CCCCC2)nc2ccccc12,-,-,MIC,-,H37Rv,-,-,>6.25 µg/mL
CC(C)=CCCC(=O)C(c1nc2nnc(N)n2[nH]c1=O)c1nc2nnc(N)n2[nH]c1=O,BACTEC,-,inhibition,12.5 µg/mL,H37Rv,-,-,0%
N/C(=N\N=C\c1cc(Cl)ccc1O)SCc1ccccc1,broth dilution,21 d,MIC,-,H37Rv,-,-,32 µM
COc1ccc(N=Nc2c(O)c3c(ccc4ccccc43)oc2=O)cc1,resazurin,-,inhibition,6.25 µg/mL,H37Rv,-,-,55%
Cc1ccc(NCCC2CCCN3CCCCC23)c2c(=O)c3ccccc3sc12,BACTEC,-,MIC,-,H37Rv,-,VERO,1.6 µg/mL
CC1(C)O[C@H]2OC([C@H](CCO)NCCCCCCCCN[C@@H](CCO)C3O[C@@H]4OC(C)(C)O[C@@H]4[C@H]3OCc3ccccc3)[C@H](OCc3ccccc3)[C@H]2O1,-,-,MIC,-,H37Rv,-,-,6.25 µg/mL
CCCCCCc1ccc(Oc2ccccc2)c(O)c1,-,-,MIC99,-,W210,-,-,2.9 µg/mL
NC1CCN(c2nc3c(cc2F)c(=O)c(C(=O)O)cn3-c2ccc(F)cc2F)C1,-,-,MBC,-,ATCC 35823,-,-,>8 µg/mL
COc1ccc2[nH]c(=O)c(COC(C)=O)c(COC(C)=O)c2c1,BACTEC,-,inhibition,12.5 µg/mL,H37Rv,-,-,0%
N/C(=N\N=C\c1ccccc1)SCc1cccc(Cl)c1,broth dilution,14 d,MIC,-,H37Rv,-,-,32 µM
O=C1C(Nc2ccccc2)=C(c2ccccc2)C(=O)N1c1ccccc1,BACTEC,-,inhibition,12.5 µg/mL,H37Rv,-,-,0%
CCOC(=O)CC(NCCCCNC(CC(=O)OCC)[C@H]1O[C@@H]2CC(C)(C)C[C@@H]2[C@H]2CC(C)(C)C[C@H]21)[C@H]1O[C@@H]2CC(C)(C)C[C@@H]2[C@H]2CC(C)(C)C[C@H]21,-,-,MIC,-,H37Rv,-,-,>12.5 µg/mL
O=C(O)c1cn(N2CCSCC2)c2cc(NC3CC3)c([N+](=O)[O-])cc2c1=O,-,-,MIC50,-,ATCC 27294 (WT),-,-,8 µM
O=C(CSc1nnc(-c2ccccn2)s1)N/N=c1/scc(-c2ccccc2Cl)n1-c1ccccc1,-,-,MIC,-,Clinical isolate 190,-,-,>80 µg/mL
Cc1nccnc1NN,BACTEC,-,MIC,-,H37Rv,-,-,≥12.5 µg/mL
O=c1[nH]c2c([N+](=O)[O-])cccc2c(O)c1N=Nc1ccc(Cl)cc1,resazurin,-,MIC,-,H37Rv,-,-,<6.25 µg/mL
CCOC(=O)c1csc([C@@H]2O[C@H](COC(=O)c3ccccc3)[C@@H](OC(=O)c3ccccc3)[C@H]2OC(=O)c2ccccc2)n1,BACTEC,-,MIC bound,-,H37Rv,-,-,>12.5 µg/mL
N/C(=N\N=C\c1cc(Cl)cc(Cl)c1O)SCc1ccc(Br)cc1,broth dilution,14 d,MIC,-,H37Rv,-,-,16 µM
Nc1cccc2c1[nH]c(=O)c1ccccc12,BACTEC,-,MIC,-,H37Rv,-,VERO,12.5 µg/mL
O=C(c1ccncc1)N1N=C(c2ccco2)CC1(O)C(Cl)(Cl)Cl,-,-,MIC,-,RGH103,-,-,>268 µM
O=C1NC(=O)C2C3C(C(O)(c4ccccc4)c4ccccn4)=CC(/C3=C(\c3ccccc3)c3ccccn3)C12,-,-,MIC bound,-,H37Rv,-,-,>6.25 µg/mL
CC[C@H]1OC(=O)[C@H](C)[C@@H](O[C@H]2C[C@@](C)(OC)[C@@H](O)[C@H](C)O2)[C@H](C)[C@@H](O[C@@H]2O[C@H](C)C[C@H](N(C)C)[C@H]2O)[C@](C)(OC)C[C@@H](C)C(=O)[C@H](C)[C@@H](O)[C@]1(C)O,-,-,MBC,-,H37Rv,-,-,>8 µg/mL

A number after MIC or MFC names an inhibition level or a share of isolates. Inhibition is in % at the dose shown (toxicity tests: loss of growth or viability). MIC bound: limit read from a one-dose screen. Blank or dashed fields: not listed here.